Laboratory results: PubChem BioAssay AID624099 (ICCB-Longwood, 2012)

Purpose: 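Human genes that papillomavirus E2 requires to repress the HPV18 LCR promoter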 (primary screen)
Cell system: human C33A cervical carcinoma cells (HPV-negative) stably expressing BPV1 E2 and an HPV18 LCR luciferase reporter
Reagents: siRNA pool against human genes, 40 nM
Timing: 72 h
Detection: 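Per-well luciferase luminescence, z-scored on each plate against the plate mean and SD with control wells left out, then averaged across three replicate plates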
Reading the numbers: mean z-score and z-score: higher = stronger reporter signal, weaker E2 silencing
Active means: 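Hit if mean z-score reaches 2 and two or more of three replicate z-scores also reach 2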
The deposit covers about 21,000 reagents; shown is an unselected part. 497 of them (2.4%) were called active. 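Higher z means weaker E2 silencing; only reporter increases were scored, and knock-downs that hurt cell survival may mask genuine repressor factors.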 A number with no mark means an inactive call.

| gene symbol | PubChem SID | mean z-score | z-score, replicate A | z-score, replicate B | z-score, replicate C |
| --- | --- | --- | --- | --- | --- |
| SLC17A3 | SID134312461 | -0.1 | -0.21 | 0 | -0.1 |
| LOC402671 (retired record) | SID134329320 | -0.98 | -0.52 | -1.09 | -1.31 |
| PLA2G3 (phospholipase A2 group III) | SID134314277 | -1.04 | -0.91 | -0.93 | -1.27 |
| TPT1P8 (TPT1 pseudogene 8) | SID134310461 | 0.74 | 0.89 | 0.52 | 0.81 |
| OR8B4 (olfactory receptor family 8 subfamily B member 4) | SID134326590 | -0.19 | -0.26 | -0.22 | -0.1 |
| ACTN4 (actinin alpha 4) | SID134316294 | -1.24 | -0.97 | -1.31 | -1.46 |
| IL36A (interleukin 36 alpha) | SID134312891 | 2.43 (active) | 2.69 | 2.3 | 2.31 |
| SLC52A1 | SID134315204 | -1.3 | -1.3 | -1.15 | -1.46 |
| CACNA2D1 | SID134323936 | -0.08 | 0.17 | -0.19 | -0.23 |
| LINC00239 (long independently transcribed non-coding RNA 239) | SID134325251 | 0.47 | 0.69 | 0.79 | -0.07 |
| CPSF1 (cleavage and polyadenylation specific factor 1) | SID134324103 | -1.07 | -0.94 | -1.19 | -1.07 |
| PGAM2 (phosphoglycerate mutase 2) | SID134313570 | -0.72 | -0.31 | -0.84 | -1.02 |
| LOC400144 (retired record) | SID134328454 | 0.87 | 0.82 | 0.93 | 0.85 |
| LOC401460 (retired record) | SID134328008 | -1.23 | -1.09 | -1.47 | -1.13 |
| LOC391429 (retired record) | SID134327137 | -0.36 | -0.2 | -0.38 | -0.5 |
| FDPS (farnesyl diphosphate synthase) | SID134313494 | 1.1 | 0.93 | 1.35 | 1.01 |
| MRPS18C (mitochondrial ribosomal protein S18C) | SID134317366 | -0.14 | -0.21 | 0.05 | -0.26 |
| NETO2 (neuropilin and tolloid like 2) | SID134321543 | -0.49 | -0.73 | -0.52 | -0.21 |
| CSAG2 (CSAG family member 2) | SID134310810 | 0.36 | 0.37 | 0.61 | 0.09 |
| GPR146 (G protein-coupled receptor 146) | SID134310991 | 1.1 | 1.22 | 1.12 | 0.96 |
| ADAM21 (ADAM metallopeptidase domain 21) | SID134310505 | 0.52 | 0.67 | 0.7 | 0.18 |
| TRIM21 (tripartite motif containing 21) | SID134311884 | 0.31 | 0.34 | 0.21 | 0.38 |
| TGS1 (trimethylguanosine synthase 1) | SID134321107 | -0.6 | -0.53 | -0.45 | -0.83 |
| CYTH2 (cytohesin 2) | SID134316237 | -0.75 | -0.66 | -0.94 | -0.64 |
| OS9 (OS9 endoplasmic reticulum lectin) | SID134315257 | 0.04 | -0.1 | 0.24 | -0.03 |
| KLHL26 (kelch like family member 26) | SID134324031 | -0.57 | -0.86 | -1 | 0.15 |
| GPSM2 (G protein signaling modulator 2) | SID134310267 | 0.79 | 0.58 | 0.61 | 1.16 |
| FKBP2 (FKBP prolyl isomerase 2) | SID134313786 | 2.96 (active) | 3.05 | 3.31 | 2.51 |
| CCL24 (C-C motif chemokine ligand 24) | SID134312775 | 0.6 | 0.58 | 0.45 | 0.77 |
| COX20 (cytochrome c oxidase assembly factor COX20) | SID134325009 | 0.73 | 0.64 | 0.84 | 0.7 |
| CFAP97 (cilia and flagella associated protein 97) | SID134325949 | -0.56 | -0.83 | -0.55 | -0.3 |
| LOC143034 (retired record) | SID134326532 | -0.1 | -0.21 | -0.15 | 0.05 |
| SLC7A6OS | SID134318898 | -0.8 | -1.42 | -0.35 | -0.64 |
| PPP1R16A (protein phosphatase 1 regulatory subunit 16A) | SID134322636 | -1.46 | -1.38 | -1.88 | -1.13 |
| FTSJ3 (FtsJ RNA 2'-O-methyltransferase 3) | SID134317595 | -0.77 | -0.32 | -0.82 | -1.18 |
| LRCH4 | SID134315669 | 1.32 | 1.48 | 1.34 | 1.13 |
| LOC391353 (retired record) | SID134327128 | 1.23 | 1.51 | 1.03 | 1.16 |
| C1orf122 (chromosome 1 open reading frame 122) | SID134326807 | 1.43 | 1.55 | 1.1 | 1.66 |
| ZFTRAF1 (zinc finger TRAF-type and ring finger containing 1) | SID134319038 | 1.58 | 1.72 | 1.68 | 1.35 |

5 of these entries, reformatted:
CPSF1 (cleavage and polyadenylation specific factor 1) [SID134324103]
- mean z-score: -1.07
- z-score, replicate A: -0.94
- z-score, replicate B: -1.19
- z-score, replicate C: -1.07

PGAM2 (phosphoglycerate mutase 2) [SID134313570]
- mean z-score: -0.72
- z-score, replicate A: -0.31
- z-score, replicate B: -0.84
- z-score, replicate C: -1.02

LOC400144 (retired record) [SID134328454]
- mean z-score: 0.87
- z-score, replicate A: 0.82
- z-score, replicate B: 0.93
- z-score, replicate C: 0.85

LOC401460 (retired record) [SID134328008]
- mean z-score: -1.23
- z-score, replicate A: -1.09
- z-score, replicate B: -1.47
- z-score, replicate C: -1.13

LOC391429 (retired record) [SID134327137]
- mean z-score: -0.36
- z-score, replicate A: -0.2
- z-score, replicate B: -0.38
- z-score, replicate C: -0.5
